The results in this text go back to article PMC7942396, “Drug Repurposing Screen for Compounds Inhibiting the Cytopathic Effect of SARS-CoV-2” (Frontiers in Pharmacology, 2021).

System in the first data set: not listed separately
The data set is described as follows: in vitro. As to conditions: African green monkey.
In turn, `c1ccc(-c2ccc(C(c3ccccc3)n3ccnc3)cc2)cc1` (stereo not drawn) [Bifonazole] yielded a CC50 of 14.1 µM.

In the case of `CCCCCCCCn1cc(CC(N)=O)c2cc(-c3cccc(C)c3)ccc21` [Cysmethynil], the CC50 at 72 h stood at 14.1 µM.

The compound `CN(C)[C@@H](CCOc1cccc2ccccc12)c1ccccc1` [Dapoxetine] showed a CC50 at 72 h of 14.1 µM.

In the case of `CCCCN(CCCC)CCC(O)c1cc2c(Cl)cc(Cl)cc2c2cc(C(F)(F)F)ccc12` (stereo not drawn) [Halofantrine], the CC50 came out at 14.1 µM.

Another data set has as its system Vero E6 cells.
Assay: not given
As to conditions: read-out: Cytotox CC50; cytotoxicity counter-assay, Vero E6 cells without virus.
On to 10058-F4, for which the CC50 came to 12.6 µM.

For the compound `CCCCCCCCCCCCCCCc1cccc(O)c1C(=O)O` [Anacardic Acid], the CC50 amounted to 14.1 µM.

For the compound `CC(C)c1onc(-c2c(Cl)cccc2Cl)c1COc1ccc(/C=C/c2cccc(C(=O)O)c2)c(Cl)c1` [GW-4064X], the CC50 came to 14.1 µM.

Regarding `CCCCCCCc1ccc(CCc2cccc(O)c2C(=O)O)cc1` [MG-149], the CC50 turned out to be 14.1 µM.

Consider `Cn1cc(-c2ccncc2)c(-c2ccc(OCc3ccc4ccccc4n3)cc2)n1` [MP-10], for which the CC50 was 14.1 µM.

Consider `COc1ccc(C(C)(C)C)cc1CN[C@H]1C2CCN(CC2)[C@H]1C(c1ccccc1)c1ccccc1` [Maropitant], for which the CC50 came to 14.1 µM.

Take `CCC(C)CNCC(=O)N1CCc2sccc2C1COc1cccc(C)c1` (stereo not drawn) [RU-SKI 43]: the CC50 is 14.1 µM.

With HBX 19818, the CC50 was found to be 12.6 µM.
